# How the values were obtained:
# [1] = target: SC-gB (envelope glycoprotein B of the PRV SC strain, ectodomain residues 59-756) (pseudorabies virus, SC strain)
# [2] = target: TJ-gB (envelope glycoprotein B of the PRV TJ strain, ectodomain residues 59-756) (pseudorabies virus, TJ strain)
substance,measurement,setting,value
"murine PILRα (paired immunoglobulin-like type 2 receptor alpha), ectodomain",Kd,[1],0.189 µM
same,Kd,[2],0.094 µM

# Reference: article PMC10652121, “The mutations on the envelope glycoprotein D contribute to the enhanced neurotropism of the pseudorabies virus variant” (2023)
